Pooled drug test results. Numbers come from NIAID ChemDB, via PubChem.

Common to all: cytotoxicity tests; cell line: MT-4; measure: CC50

CCn: concentration that lowers growth or viability of the cells by n%.

{"structure": "CN1CC(=O)C(=O)C=C1Cn1cnc([N+](=O)[O-])c1Nc1ccccc1", "read by": "MTT", "value": ">250 µM"}
{"structure": "CC1=C(C)[C@]2(C)C(C)[C@@]1(C)[C@@H]1C(=O)N(N)C(=O)[C@@H]12", "read by": "MTT", "value": ">100 µM"}
{"structure": "COc1cc(OC)c(C2SCC(=O)N2Cc2ccco2)cc1OC", "value": "263 µM"}
{"structure": "COc1ccc(NC(=O)NN2C(=O)[C@@H]3[C@H](C2=O)[C@]2(C)C=C[C@@]3(C(C)C)CC2)cc1", "read by": "MTT", "value": "57 µM"}
{"structure": "CSc1nc(=O)n([C@H]2C[C@H](N=[N+]=[N-])[C@@H](CO)O2)cc1C", "value": ">100 µM"}
{"structure": "CN1CC(=O)C(=O)C=C1Cn1cnc([N+](=O)[O-])c1Nc1cc(Cl)cc(Cl)c1", "read by": "MTT", "value": "7.3 µM"}
{"structure": "C=CCOCn1c(Cc2c(F)c(F)cc(F)c2F)c(CC)c(=O)[nH]c1=O", "value": ">100 µM"}
{"structure": "COC([C@@H]1OC[C@@](O)(CO)[C@H]1N=[N+]=[N-])n1cnc2c(N)ncnc21", "value": ">300 µM"}
{"structure": "Cc1cn([C@H]2C[C@H](N=[N+]=[N-])[C@@H](CO)O2)c(=O)n(C(C)C)c1=O", "value": "278 µM"}
{"structure": "C=CCOCn1c(Cc2cc(F)ccc2F)c(CC)c(=O)[nH]c1=O", "value": ">100 µM"}
{"structure": "CC1=NO[C@]2(CC[C@H](C)N3C[C@H]2n2cc(C(=O)NCc4ccc(F)cc4F)c(=O)c(O)c2C3=O)C1C", "read by": "luminescence", "value": "50 µM"}
{"structure": "O=C1CSC(c2c(F)cccc2Cl)N1Cc1ccco1", "value": "97.76 µM"}
{"structure": "CC(C)[C@]12C=C[C@](C)(CC1)[C@H]1C(=O)N(NC(=O)NC3CCCCC3)C(=O)[C@H]12", "read by": "MTT", "value": "72 µM"}
{"structure": "C[C@H]1CC[C@]2(CC(OC3COC3)=NO2)[C@H]2CN1C(=O)c1c(O)c(=O)c(C(=O)NCc3ccc(F)cc3F)cn12", "read by": "luminescence", "value": "50 µM"}
{"structure": "C=C(C)COCn1c(Cc2cccc(F)c2)c(CC)c(=O)[nH]c1=O", "value": ">100 µM"}
{"structure": "CCCCn1c(=O)c(C)cn([C@H]2C[C@H](N=[N+]=[N-])[C@@H](CO)O2)c1=O", "value": "330 µM"}
{"structure": "COc1ccc(NC(=S)NN2C(=O)[C@@H]3[C@H](C2=O)[C@]2(C)C(C)=C(C)[C@@]3(C)C2C)cc1", "read by": "MTT", "value": "55 µM"}
{"structure": "CCCn1c(=O)c(C)cn([C@H]2C[C@H](N=[N+]=[N-])[C@@H](CO)O2)c1=O", "value": ">345 µM"}
{"structure": "O=C(NCc1c(F)cc(F)cc1F)c1cn2c(c(O)c1=O)C(=O)N[C@H]1CCCC[C@H]12", "read by": "luminescence", "value": "10.3 µM"}
{"structure": "C[C@@H]1CO[C@]2(CC[C@H](C)N3C[C@H]2n2cc(C(=O)NCc4c(F)cc(F)cc4F)c(=O)c(O)c2C3=O)O1", "read by": "luminescence", "value": "32.6 µM"}
{"structure": "CN1CC(=O)C(=O)C=C1Cn1cnc([N+](=O)[O-])c1Nc1cccc(Cl)c1", "read by": "MTT", "value": "5.5 µM"}
{"structure": "Cc1cccc(C)c1C1SCC(=O)N1Cc1ccco1", "value": "42.8 µM"}
{"structure": "COc1ccc(NC(=O)NN2C(=O)[C@H]3[C@H]4C=C(C)[C@H](C[C@@H]4C(C)C)[C@H]3C2=O)cc1", "read by": "MTT", "value": "46 µM"}
{"structure": "[N-]=[N+]=N[C@H]1C[C@@H](N2C(=O)NC(=O)/C2=C/c2ccccc2)O[C@@H]1CO", "value": "~100 µM"}
{"structure": "Cc1ccc(Sc2c([N+](=O)[O-])ncn2CC2=CC(=O)C(=O)CN2C)cc1", "read by": "MTT", "value": "29.8 µM"}
{"structure": "[N-]=[N+]=N[C@H]1C[C@H](N2C(=O)NC(=O)/C2=C/c2ccccc2)O[C@@H]1CO", "value": "~100 µM"}
{"structure": "COC([C@@H]1OC[C@@](O)(CO)[C@H]1N=[N+]=[N-])n1ccc(N)nc1=O", "value": ">300 µM"}
{"structure": "Cc1cn([C@H]2C[C@H](N=[N+]=[N-])[C@@H](CO)O2)c(=O)n(CC2CO2)c1=O", "value": "359 µM"}
{"structure": "CC1CCC(O[C@@H]2O[C@H](COS(=O)(=O)O)[C@@H](OS(=O)(=O)O)[C@H](O[C@@H]3O[C@H](COS(=O)(=O)O)[C@@H](OS(=O)(=O)O)[C@H](O[C@@H]4O[C@H](COS(=O)(=O)O)[C@@H](OS(=O)(=O)O)[C@H](O[C@@H]5O[C@H](COS(=O)(=O)O)[C@@H](OS(=O)(=O)O)[C@H](O[C@@H]6O[C@H](COS(=O)(=O)O)[C@@H](OS(=O)(=O)O)[C@H](OS(=O)(=O)O)[C@H]6OS(=O)(=O)O)[C@H]5OS(=O)(=O)O)[C@H]4OS(=O)(=O)O)[C@H]3OS(=O)(=O)O)[C@H]2OS(=O)(=O)O)CC1", "value": ">1000 µg/mL"}
{"structure": "C[C@H]1CC[C@]2(CC(C#CC(C)(C)S(C)(=O)=O)=NO2)[C@H]2CN1C(=O)c1c(O)c(=O)c(C(=O)NCc3c(F)cc(F)cc3F)cn12", "read by": "luminescence", "value": "50 µM"}
{"structure": "CCCCO[C@@H]1O[C@H](COS(=O)(=O)O)[C@@H](OS(=O)(=O)O)[C@H](O[C@@H]2O[C@H](COS(=O)(=O)O)[C@@H](OS(=O)(=O)O)[C@H](O[C@@H]3O[C@H](COS(=O)(=O)O)[C@@H](OS(=O)(=O)O)[C@H](O[C@@H]4O[C@H](COS(=O)(=O)O)[C@@H](OS(=O)(=O)O)[C@H](O[C@@H]5O[C@H](COS(=O)(=O)O)[C@@H](OS(=O)(=O)O)[C@H](OS(=O)(=O)O)[C@H]5OS(=O)(=O)O)[C@H]4OS(=O)(=O)O)[C@H]3OS(=O)(=O)O)[C@H]2OS(=O)(=O)O)[C@H]1OS(=O)(=O)O", "value": ">1000 µg/mL"}
{"structure": "COc1ccc(C2SCC(=O)N2Cc2ccco2)cc1", "value": "85.64 µM"}
{"structure": "Cc1cn([C@H]2C=C[C@@H](CO)O2)c(=O)n(C)c1=O", "value": "359 µM"}
{"structure": "CC1=C[C@@H]2[C@@H]3C(=O)N(NC(=O)Nc4ccccc4)C(=O)[C@@H]3[C@H]1C[C@@H]2C(C)C", "read by": "MTT", "value": ">100 µM"}
{"structure": "C=C(C)COCn1c(Cc2cc(F)ccc2F)c(CC)c(=O)[nH]c1=O", "value": "56 µM"}
{"structure": "N[C@H]1C[C@H](n2cc(F)c(=O)[nH]c2=O)OC1[C@@H](O)CO", "value": "100 µM"}
{"structure": "C[C@H]1CC[C@]2(CC(=O)N(Cc3nc4ccccc4n3C)O2)[C@H]2CN1C(=O)c1c(O)c(=O)c(C(=O)NCc3c(F)cc(F)cc3F)cn12", "read by": "luminescence", "value": "50 µM"}
{"structure": "CCCCO[C@@H]1O[C@H](COS(=O)(=O)O)[C@@H](OS(=O)(=O)O)[C@H](O[C@@H]2O[C@H](COS(=O)(=O)O)[C@@H](OS(=O)(=O)O)[C@H](O[C@@H]3O[C@H](COS(=O)(=O)O)[C@@H](OS(=O)(=O)O)[C@H](O[C@@H]4O[C@H](COS(=O)(=O)O)[C@@H](OS(=O)(=O)O)[C@H](OS(=O)(=O)O)[C@H]4OS(=O)(=O)O)[C@H]3OS(=O)(=O)O)[C@H]2OS(=O)(=O)O)[C@H]1OS(=O)(=O)O", "value": ">1000 µg/mL"}
{"structure": "C[C@H]1CC[C@]2(CCC(=O)N2)[C@H]2CN1C(=O)c1c(O)c(=O)c(C(=O)NCc3c(F)cc(F)cc3F)cn12", "read by": "luminescence", "value": "50 µM"}
{"structure": "O=C(O)c1ccc(Nc2ccc3ccccc3c2O)cc1", "read by": "MTT", "value": "70.07 µM"}
{"structure": "C[C@H]1CC[C@]2(CC(=O)N(Cc3cccnc3)O2)[C@H]2CN1C(=O)c1c(O)c(=O)c(C(=O)NCc3c(F)cc(F)cc3F)cn12", "read by": "luminescence", "value": "50 µM"}
{"structure": "CC1=C(C)[C@]2(C)C(C)[C@@]1(C)[C@@H]1C(=O)N(NC(=O)NC3CCCCC3)C(=O)[C@@H]12", "read by": "MTT", "value": "12 µM"}

For reference, 6 entries again:

structure | read by | value
COC([C@@H]1OC[C@@](O)(CO)[C@H]1N=[N+]=[N-])n1ccc(N)nc1=O | - | >300 µM
[N-]=[N+]=N[C@H]1C[C@H](N2C(=O)NC(=O)/C2=C/c2ccccc2)O[C@@H]1CO | - | ~100 µM
Cc1ccc(Sc2c([N+](=O)[O-])ncn2CC2=CC(=O)C(=O)CN2C)cc1 | MTT | 29.8 µM
CCCCO[C@@H]1O[C@H](COS(=O)(=O)O)[C@@H](OS(=O)(=O)O)[C@H](O[C@@H]2O[C@H](COS(=O)(=O)O)[C@@H](OS(=O)(=O)O)[C@H](O[C@@H]3O[C@H](COS(=O)(=O)O)[C@@H](OS(=O)(=O)O)[C@H](O[C@@H]4O[C@H](COS(=O)(=O)O)[C@@H](OS(=O)(=O)O)[C@H](O[C@@H]5O[C@H](COS(=O)(=O)O)[C@@H](OS(=O)(=O)O)[C@H](OS(=O)(=O)O)[C@H]5OS(=O)(=O)O)[C@H]4OS(=O)(=O)O)[C@H]3OS(=O)(=O)O)[C@H]2OS(=O)(=O)O)[C@H]1OS(=O)(=O)O | - | >1000 µg/mL
CCCCn1c(=O)c(C)cn([C@H]2C[C@H](N=[N+]=[N-])[C@@H](CO)O2)c1=O | - | 330 µM
CSc1nc(=O)n([C@H]2C[C@H](N=[N+]=[N-])[C@@H](CO)O2)cc1C | - | >100 µM

An empty or dashed field is not shown. Rows are shuffled and stem from different studies.